PubChem BioAssay AID504761, Drosophila RNAi Screening Center, 2011
Purpose: 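Insect host genes that dengue virus relies on to spread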 (primary screen). Cells: D.Mel-2 cells from Drosophila. Knock-down reagent: long dsRNA against Drosophila genes. Treatment: infection with dengue virus type 2; dose and infection time not stated. Measurement: 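Cells stained for dengue envelope protein and imaged; percent of infected cells per well on duplicate plates, ranked by infection, with stained nuclei counted for cell number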. Reading the numbers: infection score: higher = more virus-infected cells; cell count: higher = more cells in the well. Call rule: 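Very low infection ranking in both replicate wells (chance probability at most 0.065), then a retest showing infection dropped 1.5-fold or more at p below 0.05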. Calls: active = confirmed: knock-down lowers infection; inactive = not picked or not confirmed.
The screen tested about 22,000 reagents; below is an unselected part of those that have a named target and a result. Of all reagents, 116 (0.52%) are marked active. 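Calls depend on retest data that are not deposited; infection was ranked per plate without normalising between plates; the unit of the infection score is not given.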 The raw values are shown without normalisation. A plus sign joins genes that one reagent is predicted to hit. Not stated in the record: the amount of reagent, the time to read-out.

no.	gene	DRSC id	infection score, replicate 1	infection score, replicate 2	cell count, replicate 1	cell count, replicate 2	Outcome
1	Cep97 (GeneID 33610)	DRSC00637	3.5	4.05	6310	6372	inactive
2	Dfd (GeneID 40832)	DRSC12593	7.2	2.48	6305	6402	inactive
3	Dfd (GeneID 40832)	DRSC27981	6.38	5.9	6782	6928	inactive
4	CG10098 (GeneID 40851)	DRSC12509	11.1	23.5	5570	5766	inactive
5	CG10098 (GeneID 40851)	DRSC26223	11.1	4.66	6023	5841	inactive
6	NPF (GeneID 42018)	DRSC17019	2.1	5.09	6667	6605	inactive
7	Ice2 (GeneID 42507)	DRSC14268	3.07	6.78	6184	6301	inactive
8	Ssb-c31a (GeneID 34120)	DRSC03443	0.9		667	546	inactive
9	Ssb-c31a (GeneID 34120)	DRSC28004	5.31	22.7	6435	5480	inactive
10	Dyb (GeneID 36362)	DRSC07208	2.07	2.86	6266	6373	inactive
11	Dyb (GeneID 36362)	DRSC22862	0.43	16.2	6113	2889	inactive
12	Dyb (GeneID 36362)	DRSC29699	4.6	7.23	6285	5322	inactive
13	TAF1B (GeneID 41242)	DRSC16001	29.8	19.2	5373	5842	inactive
14	CG30291 (GeneID 246534)	DRSC03842	0.45	0.98	6272	5535	inactive
15	dnr1 (GeneID 37575)	DRSC03948	2.69	1.55	6691	6527	inactive
16	dnr1 (GeneID 37575)	DRSC04122	24.1	15.7	6297	4955	inactive
17	dnr1 (GeneID 37575)	DRSC26101	15.8	10.5	5055	6099	inactive
18	CG3847 (GeneID 31577)	DRSC17444	2.01	7.66	6456	6396	inactive
19	CG3847 (GeneID 31577)	DRSC18327	2.66	4.87	5071	5521	inactive
20	CG3847 (GeneID 31577)	DRSC26193	6.66	5.23	5090	5617	inactive

Part of the list above, reformatted.
gene | DRSC id | infection score, replicate 1 | infection score, replicate 2 | cell count, replicate 1 | cell count, replicate 2 | Outcome
Cep97 (GeneID 33610) | DRSC00637 | 3.5 | 4.05 | 6310 | 6372 | inactive
Dfd (GeneID 40832) | DRSC12593 | 7.2 | 2.48 | 6305 | 6402 | inactive
Dfd (GeneID 40832) | DRSC27981 | 6.38 | 5.9 | 6782 | 6928 | inactive
CG10098 (GeneID 40851) | DRSC12509 | 11.1 | 23.5 | 5570 | 5766 | inactive
CG10098 (GeneID 40851) | DRSC26223 | 11.1 | 4.66 | 6023 | 5841 | inactive
NPF (GeneID 42018) | DRSC17019 | 2.1 | 5.09 | 6667 | 6605 | inactive
Ice2 (GeneID 42507) | DRSC14268 | 3.07 | 6.78 | 6184 | 6301 | inactive
Ssb-c31a (GeneID 34120) | DRSC03443 | 0.9 | – | 667 | 546 | inactive
Ssb-c31a (GeneID 34120) | DRSC28004 | 5.31 | 22.7 | 6435 | 5480 | inactive
Dyb (GeneID 36362) | DRSC07208 | 2.07 | 2.86 | 6266 | 6373 | inactive

The list goes on.
no.	gene	DRSC id	infection score, replicate 1	infection score, replicate 2	cell count, replicate 1	cell count, replicate 2	Outcome
21	Act79B (GeneID 40444)	DRSC11604	4.15	13	6028	5691	inactive
22	Act79B (GeneID 40444)	DRSC25023	5.62	6.15	5728	5532	inactive
23	CG6937 + btn	DRSC16917			296	272	inactive
24	CG11600 (GeneID 41555)	DRSC14332	3.11	7.09	6559	6463	inactive
25	CG11600 (GeneID 41555)	DRSC24238	4.46	5.66	6074	6026	inactive
26	CG42233 (GeneID 43754)	DRSC14328	5.32	10.7	3137	5317	inactive
27	CG42233 (GeneID 43754)	DRSC15416	6.19	3.63	2938	6417	inactive
28	CG42233 (GeneID 43754)	DRSC24948	7.09	10.5	4991	4407	inactive
29	CG42233 (GeneID 43754)	DRSC26880	5.21	4.49	6194	6009	inactive
30	cpo (GeneID 45840)	DRSC13265	6.44	7.14	5943	4955	inactive
31	Unc-76 (GeneID 31179)	DRSC18193	0.47	0.59	6425	6415	inactive
32	Unc-76 (GeneID 31179)	DRSC18560	0.69	0.8	6237	6353	inactive
33	CG3408 (GeneID 39107)	DRSC10360	3.09	1.88	6110	6218	inactive
34	CG17375 (GeneID 33956)	DRSC02614	1.08	3.14	6466	5995	inactive
35	CG17375 (GeneID 33956)	DRSC29517	16.7	10.7	4550	4271	inactive
36	CG11550 (GeneID 43731)	DRSC14326	4.33	1.48	2449	6803	inactive
37	CG1750 (GeneID 43699)	DRSC15240	2.83	1.51	5696	6364	inactive
38	tral (GeneID 39430)	DRSC09779	11.8	4.59	5046	5401	inactive
39	tral (GeneID 39430)	DRSC25049	1.64	3.36	6100	6186	inactive
40	CG13024 (GeneID 39880)	DRSC09904	2.94	2.89	6024	6480	inactive
41	CG13024 (GeneID 39880)	DRSC29921	14.8	5.21	6459	5987	inactive
42	e(r) (GeneID 43951)	DRSC18768	2.18	1.34	6427	6267	inactive
43	CG15236 (GeneID 35595)	DRSC23025	1.61	2.93	6317	6860	inactive
44	CG15236 (GeneID 35595)	DRSC25883	4.56	8.05	6252	6411	inactive
45	Dg (GeneID 36773)	DRSC06718	15.7	13.7	6052	6222	inactive
46	CG30065 (GeneID 246431)	DRSC05420	4.29	1.04	5971	6044	inactive
47	CG30403 (GeneID 246595)	DRSC03889	3.91	24.2	6187	5251	inactive
48	Hmr (GeneID 31988)	DRSC17740	1.2	2.85	6476	6458	inactive
49	CG6700 (GeneID 34496)	DRSC02980	23.9	17.7	6077	6126	inactive
50	CG6700 (GeneID 34496)	DRSC25626	8.21	6.49	6441	5902	inactive
51	CG5280 (GeneID 39033)	DRSC10498	4.17	11.5	5466	5882	inactive
52	CG5280 (GeneID 39033)	DRSC22835	1.2	12	6085	6172	inactive
53	CG10324 (GeneID 42028)	DRSC14230	3.83	6.23	5456	5204	inactive
54	p38b (GeneID 34780)	DRSC03586	1.4	0.82	6568	6737	inactive
55	LUBEL (GeneID 33950)	DRSC02141	1.55	4.93	6600	6892	inactive
56	LUBEL (GeneID 33950)	DRSC28105	40.1	22.1	5909	6031	inactive
57	Su(P) (GeneID 39856)	DRSC11291	2.55	0.78	6431	6252	inactive
58	Su(P) (GeneID 39856)	DRSC29947	8.94	7.93	6464	6104	inactive
